Compound potency records, mixed from different reports. Data source: NIAID ChemDB in PubChem.

Shared fields: whole-cell or culture tests; agent: HIV-1; method: syncytia; read-out: EC50

An empty or dashed field is not shown.

smiles,changes,strain or isolate,cell line,value
C[C@H](Cn1cnc2c(N)ncnc21)OCP(=O)(O)O,-,HE,MOLT4 + MOLT-4,8.5 µM
C#CCN1C(=O)N(Cc2ccccc2)S(=O)(=O)c2cscc21,RT-L100I,IIIB,CEM,6 µM
Cc1cn([C@@H]2O[C@H](CO[Si](C)(C)C(C)(C)C)C3(OS(=O)(=O)C=C3N)[C@H]2O[Si](C)(C)C(C)(C)C)c(=O)n(C)c1=O,-,IIIB-TIBO(0.1),CEM,0.07 µg/mL
Cc1cn([C@@H]2O[C@H](CO[Si](C)(C)C(C)(C)C)C3(OS(=O)(=O)C=C3N)[C@H]2O[Si](C)(C)C(C)(C)C)c(=O)n(C)c1=O,-,HXB2,CEM,0.05 µg/mL
Cc1cn([C@H]2C[C@H](N=[N+]=[N-])[C@@H](COP(=O)(OCc3ccc(C(=O)OC(C)C)cc3)OCc3ccc(C(=O)OC(C)C)cc3)O2)c(=O)[nH]c1=O,-,GB8,JM,0.014 µM
Cc1cn([C@H]2C[C@H](F)[C@@H]([C@@H](C)O)O2)c(=O)[nH]c1=O,-,IIIB,CEM,8.5 ± 2.1 µg/mL
Cc1cn([C@H]2C[C@H](N=[N+]=[N-])[C@@H](CO)O2)c(=O)[nH]c1=O,-,IIIB,CEM,0.015 µM
Cc1nc(CCCCCCC(=O)c2ccccc2)n2nc(Cl)ccc12,-,RF,C8166,0.08 µM
CCN1C(=O)N(Cc2ccccc2)S(=O)(=O)c2cscc21,RT-Y188H,IIIB,CEM,>310 µM
C[C@H](COc1cc(N)nc(N)n1)OCP(=O)(O)O,RT-K65R S68G T69I V75T Q151M,Clinical isolate DE434.4,CEM,≥20 µg/mL
C[C@H](Cn1cnc2c(N)nc(N)nc21)OCP(=O)(O)O,-,HE,MOLT4 + MOLT-4,1 µM
Nc1ncnc2c1ncn2CCOCP(=O)(O)O,RT-Y181C,IIIB-Nevirapine(1.0)(RT-Y181C),CEM,13 µM
Cc1nc(CCCCCCC(O)c2ccccc2)n2nc(-n3ccnc3)ccc12,-,RF,C8166,0.006 µM
Nc1cc(OCCOCP(=O)(O)O)nc(N)n1,RT-M41L V118I L210W T215Y,Clinical isolate C19,CEM,7 µg/mL
Cc1cn([C@H]2C[C@H](N=[N+]=[N-])[C@@H](CO)O2)c(=O)[nH]c1=O,-,IIIB X4,C8166,1.9 µM
CN1C(=O)N(Cc2ccccc2)S(=O)(=O)c2cscc21,-,IIIB,CEM,2.3 µM
Nc1ccn([C@H]2CC[C@@H](CO)O2)c(=O)n1,-,HXB2,CEM,0.01 µg/mL
Cc1cn([C@@H]2O[C@H](CO[Si](C)(C)C(C)(C)C)C3(OS(=O)(=O)C=C3N)[C@H]2O[Si](C)(C)C(C)(C)C)c(=O)n(C)c1=O,-,IIIB,CEM,0.03 ± 0.005 µg/mL
Cc1occc1C(=S)Nc1ccc(Cl)c(/C=N/OC(C)(C)C)c1,-,HXB2,CEM,0.02 µg/mL
CC(C)Nc1cccnc1N1CCN(C(=O)c2cc3ccccc3[nH]2)CC1,RT-L100I,TIBO-1(RT-L100I),CEM,1.6 µM
Cc1cn([C@H]2C[C@H](N=[N+]=[N-])[C@@H](CO)O2)c(=O)[nH]c1=O,-,IIIB,CEM,0.003 ± 0.001 µM
CCc1cc(NCc2nc3c(Cl)ccc(Cl)c3o2)c(=O)[nH]c1C,RT-E138K,TSAO(RT-E138K),CEM,0.48 µM
Cc1cn([C@H]2C[C@H](N=[N+]=[N-])[C@@H](COP(=O)(O)O)O2)c(=O)[nH]c1=O,-,GB8,JM,<2.6 µM
Cc1c(N)nc(N)nc1OCCOCP(=O)(O)O,RT-M41L V118I L210W T215Y,Clinical isolate C19,CEM,0.53 µg/mL
COC(=O)c1ccc(COP(=O)(O)OC[C@H]2O[C@@H](n3cc(C)c(=O)[nH]c3=O)C[C@@H]2N=[N+]=[N-])cc1,-,GB8,JM,<0.002 µM
Cc1cn([C@H]2C[C@H](F)[C@@H](C(C)O)O2)c(=O)[nH]c1=O,-,IIIB,CEM,1.9 ± 1.6 µg/mL
CCn1cnc2ncn([C@@H]3O[C@H](CO[Si](C)(C)C(C)(C)C)C4(OS(=O)(=O)C=C4N)[C@H]3O[Si](C)(C)C(C)(C)C)c2c1=O,-,IIIB,CEM,0.12 µg/mL
N#CCN1C(=O)N(Cc2ccccc2)S(=O)(=O)c2cscc21,RT-L100I,IIIB,CEM,7.8 µM
O=c1[nH]cnc2c1ncn2[C@H]1CC[C@@H](CO)O1,RT-M41L T215Y,HXB2,CEM,2.9 µg/mL
CCCCN1C[C@H](O)[C@@H](O)[C@H](O)[C@H]1CO,-,GB8,JM,56 µM
COC(=O)c1ccc(COP(=O)(OCc2ccc(C(=O)OC)cc2)OC[C@H]2O[C@@H](n3cc(C)c(=O)[nH]c3=O)C[C@@H]2N=[N+]=[N-])cc1,-,GB8,JM,0.008 µM
CC(C)(C)[Si](C)(C)OC[C@H]1O[C@@H](n2cnc3c(N)ncnc32)[C@H](O[Si](C)(C)C(C)(C)C)C12OS(=O)(=O)C=C2N,-,IIIB,CEM,0.05 µg/mL
Cc1cn([C@@H]2O[C@H](CO[Si](C)(C)C(C)(C)C)C3(OS(=O)(=O)C=C3N)[C@H]2O[Si](C)(C)C(C)(C)C)c(=O)n(C)c1=O,RT-V106A P225H,Quin-0.1 (RT V106A P225H),CEM,2.2 µM
CC(C)(C)[Si](C)(C)OC[C@H]1O[C@@H](n2cnc3c(=O)[nH]cnc32)[C@H](O[Si](C)(C)C(C)(C)C)C12OS(=O)(=O)C=C2N,-,IIIB,CEM,0.19 µg/mL
O=C1Nc2c(csc2[N+](=O)[O-])S(=O)(=O)N1Cc1ccccc1,-,IIIB,CEM,>2.3 µM
O=c1[nH]cnc2c1ncn2[C@H]1CC[C@@H](CO)O1,RT-L100I,IIIB-BHAP)(0.1)(RT-L100I,CEM,13 µM
O=C(O)COc1c(O)c2cc(c1O)C(c1ccc(F)cc1)c1cc(c(O)c(OCC(=O)O)c1O)C(c1ccc(F)cc1)c1cc(c(O)c(OCC(=O)O)c1O)C(c1ccc(F)cc1)c1cc(c(O)c(OCC(=O)O)c1O)C2c1ccc(F)cc1,-,IIIB,CEM,10 µg/mL
Cc1nc(CCCCCCC(O)c2ccccc2)n2nc(Cl)ccc12,-,RF,C8166,<0.08 µM
Nc1ncnc2c1ncn2CCOCP(=O)(O)O,-,IIIB,CEM,1.5 µg/mL
CCOC(=O)c1ccc(COP(=O)(OCc2ccc(C(=O)OCC)cc2)OC[C@H]2O[C@@H](n3cc(C)c(=O)[nH]c3=O)C[C@@H]2N=[N+]=[N-])cc1,-,GB8,JM,0.007 µM
CC(C)=CCN1Cc2cc(Cl)cc3[nH]c(=S)n(c23)C[C@@H]1C,-,IIIB,CEM,0.015 ± 0.009 µg/mL
Cc1nc(CCCCCOCc2ccccc2)n2nc(Cl)ccc12,-,RF,C8166,0.58 µM
C=C(C)OC(=O)N1c2cc(Cl)ccc2NC(=S)C1(C)C,-,MN,CEM,0.003 µM
Cc1ccnc2c1NC(=O)c1cccnc1N2C1CC1,RT-Y181C,IIIB-TSAO-m3T(10)(RT-Y181C),CEM,0.02 µg/mL
O=C1N(Cc2ccccc2)c2cscc2S(=O)(=O)N1Cc1ccccc1,RT-E138K,IIIB,CEM,≥10 µM

The last 5 rows once more:

smiles,changes,strain or isolate,cell line,value
CC(C)=CCN1Cc2cc(Cl)cc3[nH]c(=S)n(c23)C[C@@H]1C,-,IIIB,CEM,0.015 ± 0.009 µg/mL
Cc1nc(CCCCCOCc2ccccc2)n2nc(Cl)ccc12,-,RF,C8166,0.58 µM
C=C(C)OC(=O)N1c2cc(Cl)ccc2NC(=S)C1(C)C,-,MN,CEM,0.003 µM
Cc1ccnc2c1NC(=O)c1cccnc1N2C1CC1,RT-Y181C,IIIB-TSAO-m3T(10)(RT-Y181C),CEM,0.02 µg/mL
O=C1N(Cc2ccccc2)c2cscc2S(=O)(=O)N1Cc1ccccc1,RT-E138K,IIIB,CEM,≥10 µM

Rows are shuffled and stem from different studies. ECn: concentration that inhibits the pathogen or its effect by n%.